Assay results published in US11414454B2, “Compositions, methods, and systems for affinity-based protein identification and purification” (Auctus Biologies, Inc., priority 2017, dated 2022).

Tested on: RPtag (large)
Test: Association/dissociation kinetics of RPtag (small) peptides with RPtag (large) by fluorescence anisotropy
Set-up: species or system Thermoanaerobacter tengcongensis
Conditions: equilibrium non-binding S / binding S* state
Procedure: Panel a depicts representative association rate kinetics traces varying native RPtag small. Rhodamine labeled RPtag small at the indicated concentration was incubated with unlabeled RPtag large and the association measured by fluorescence anisotropy. L-S complex concentration was calculated by the equation (r−rmin)/(rmax−rmin)*[S] where r is the measured anisotropy, rmin is the anisotropy in the absence of any RPtag large, rmax is the anisotropy measured in the presence of at saturating RPtag large, and [S] is the total concentration of RPtag small used in the experiment. […] Dashed cyan lines are simulations of the mechanism shown in f using the rate constants detailed herein. […]
LS complex was performed by incubating 1000 nM RPtag large with the indicated concentrations of rhodamine labeled RPtag small. At the start of the experiment, 0.1 mM unlabeled native RPtag small was added and fluorescence anisotropy monitored. […]
The library of mutant RPtag(small) peptides, described above, was next analyzed to measure off rates (koff). The on rate was also calculated from measured koff and Kd (S*-LS transition), except instead of using unlabeled native peptide as the competitor, we used unlabeled Nd2,P5A,E18A (the tightest binding RPtag(small) peptide identified). […]

Sequence: GEKIPNFIPAELKLITKENVQ [q21a, RPtag(small) with Q21 changed to alanine]
- Keq (S-S*): 0.8 ± 0.1
